No end group written: not given here.
Assay: Circular dichroism spectroscopy with and without LPS
Type: physicochemical, E. coli

Substance	secondary structure (CD) (in the presence of LPS)	secondary structure (CD) (in solution, without LPS)	CD ratio 222/208 (with LPS 50 μM, peptide 50 μM)
KKAVAVAVAVAVAVAVAVKK-NH2 [K2(AV)8K2]	β-sheet	–	–
KKALALALALALAKK-NH2 [K2(AL)5AK2, KKALALALALALAKK]	β-sheet	random coil	–
KALALALKALALKALALALK-NH2 [K(AL)3K(AL)2K(AL)3K]	α-helical	–	1.00
